Measured values from several laboratories, pooled; numbers as filed in NIAID ChemDB.

All rows: whole-cell or culture tests; species: Mycobacterium tuberculosis

Two numbers with a dash give a range or band. A number after MIC or MFC names an inhibition level or a share of isolates. ECn is the concentration giving n% inhibition of infection, replication or growth. MIC bound comes from a single tested concentration. Blank or dashed fields: not listed here. Inhibition is in % at the dose shown (toxicity tests: loss of growth or viability). Neighbouring rows are from separate reports.

smiles	mutations	tested at	cell line	strain	method	endpoint	setting	result
O=C(CSc1nnc(-c2ccncc2)n1-c1ccc(Br)cc1)c1ccccc1	-	6.25 µg/mL	-	H37Rv	-	inhibition	-	16%
CC[C@H]1OC(=O)[C@H](C)[C@@H](O[C@H]2C[C@@](C)(OC)[C@@H](O)[C@H](C)O2)[C@H](C)[C@@H](O[C@@H]2O[C@H](C)C[C@H](N(C)C)[C@H]2O)[C@](C)(OC)C[C@@H](C)C(=O)[C@H](C)[C@@H](O)[C@]1(C)O	-	-	-	-	-	MIC90	-	1 µg/mL
CCOC(=O)C1=C(Nc2cccc3ccccc23)OC/C1=N\NC(=O)c1ccccc1O	-	-	-	H37Rv	BACTEC	MIC bound	-	>12.5 µg/mL
O=C(O)/C=C/c1ccccc1	-	-	-	90-0201 (DRUG-SUS)	-	MIC	-	100 µg/mL
Cc1nc2ccc(F)cc2c2nc3ccccc3n12	-	-	-	H37Rv	resazurin	MIC99	-	25 µg/mL
CC(C)c1cc2c(cc1O)[C@@]1(C)CCCC(C)(C)C1CC2	-	-	-	H37Rv	-	EC50	-	>12.5 µg/mL
O=C(O)CCCCCN1C(=O)C2OC3C(=O)N(CCCCCC(=O)O)C(=O)C3C2C1=O	-	12.5 µg/mL	-	H37Rv	BACTEC	inhibition	-	14%
Clc1ccc(Nc2cc3nc4ccccc4n(-c4ccc(Cl)c(Cl)c4)c-3cc2=NC2CCNCC2)cc1Cl	-	-	-	MTB9 (RIF-resistant)	-	MIC	-	0.5 µg/mL
C=C[C@H]1[C@H](OC2OC(CO)C(O)C(O)C2O)OC=C(C(=O)OC)[C@H]1C[C@H]1CC(=O)C[C@H](CCc2ccc(O)cc2)O1	-	-	-	H37Rv	BACTEC	MIC	-	≥12.5 µg/mL
CC1CN(c2cc3c(cc2F)c(=O)c(C(=O)O)cn3-c2ccc(F)cc2F)CCN1	-	-	-	-	-	MIC50	-	1.4 µg/mL
COc1ccc(CNCCN[C@@H](C)C2CCCCC2)cc1OC	-	-	-	-	-	MIC	-	50 µM
NNC(=O)c1ccccc1	-	-	-	Mtb 352	-	MIC	-	1 µg/mL
CO[C@@H]1[C@@H](OC(N)=O)[C@@H](O)[C@H](Oc2ccc3c(O)c(NC(=O)c4ccc(O)c(CC=C(C)C)c4)c(=O)oc3c2C)OC1(C)C	-	-	-	H37Rv (ATCC 27294)	resazurin	MIC	-	2 µg/mL
CSCCC(NC(=O)OCc1ccccc1)C(=O)NC(CO)C(=O)O	-	12.8 µg/mL	-	H37Rv	BACTEC	inhibition	-	24%
CCCCC(CC)CN1CN(CC(CC)CCCC)CC(C)(NCCNCCc2ccccc2OC)C1	-	-	-	-	-	MIC	-	12.5 µM
C=CCn1c(SCC(=O)c2ccccc2)nnc1-c1ccncc1	-	6.25 µg/mL	-	H37Rv	-	inhibition	-	6%
O=C(/C=C/c1ccc(F)cc1Cl)c1ccc(F)cc1	-	-	-	H37Rv	resazurin	MIC	7 d	16 µg/mL
c1ccc(C(Cn2ccnc2)OCc2cccc3ccccc23)cc1	-	-	-	CIP103471	-	MIC	-	1 µg/mL
CC(=O)C(CC(=O)Nc1ccccc1)C(=O)Nc1cccc2ccccc12	-	5 µg/mL	-	H37Rv	-	inhibition	-	0%
O=C(/C=C/c1ccc(F)cc1Cl)c1ccccc1	-	-	-	H37Rv	MTT	MIC	7 d	32 µg/mL
Cn1cc(NC(=O)c2cc(NC(=O)CN=C(N)N)cn2C)cc1C(=O)NCCC(=N)N	-	-	VERO	H37Rv	-	MIC	-	0.5 µg/mL
CC[C@@H](CO)NCCN[C@@H](CC)CO	INH resistant	-	-	H37Rv	resazurin	MIC99	-	7.64 µg/mL
CC1COc2c(N3CCN(C)CC3)c(F)cc3c(=O)c(C(=O)O)cn1c23	-	-	-	H37RV (EMB-R)	-	MIC	-	0.63–1.25 µg/mL
CC(C)N=c1cc2n(-c3ccc(Cl)cc3)c3ccccc3nc-2cc1Nc1ccc(Cl)cc1	-	-	-	2230 (SM INH RIF-RES)	-	MIC	-	2 µg/mL
CC[C@@H](CO)NCCN[C@@H](CC)CO	-	-	-	90-0233 (isoniazid streptomycin-resistant)	-	MIC	-	1 µg/mL
Cc1cc(=O)n2nc(CSc3nnc(N)s3)sc2n1	-	-	-	H37Rv	resazurin	MIC bound	-	>6.25 µg/mL
COc1ccc(Nc2nc3ccc(N)cc3nc2C(N)=O)cc1OC	-	-	-	H37Rv	-	EC50	-	4.8 µM
COc1ccc(C2=NNc3n[nH]c(=S)n3N2)cc1OC	-	12.5 µg/mL	-	H37Rv	BACTEC	inhibition	-	3%
CCCc1nc2ccccc2c2nc3ccccc3n12	-	-	-	H37Rv	resazurin	MIC99	-	0.78 µg/mL
COC1=CCC2=C(CCC3C2CCP3(C)=S)C1	-	6.25 µg/mL	-	H37Rv	resazurin	inhibition	-	11%
O=C(/C=C/c1ccccc1)c1ccc(F)cc1	-	-	-	H37Rv	MTT	MIC	14 d	32 µg/mL
NCCC(O)C(N)CC(=O)NC1CNC(=O)C(C2CCN=C(N)N2)NC(=O)/C(=C/NC(N)=O)NC(=O)C(CO)NC(=O)C(CO)NC1=O	-	-	-	H37Rv	-	MIC	-	12.5 µg/mL
CCCCCC(O)(CCCCC)CCCCCCCCC1=C(O)c2[nH]c(=O)ccc2C(=O)C1=O	-	-	-	H37Rv	resazurin	MIC bound	-	>6.25 µg/mL
CC(=O)C(CC(=O)Nc1ccccc1Cl)C(=O)Nc1cccc2ccccc12	-	5 µg/mL	-	H37Rv	-	inhibition	-	0%
CC(Cc1c[nH]c2ccccc12)NCCNC1CCCc2ccccc21	-	-	-	-	-	MIC	-	50 µM
Cc1ccc(-c2cnc(Nc3cccc(OCCCN(C)C)c3)c(C(N)=O)n2)cc1	-	-	-	H37Rv (ATCC 27294)	resazurin	MIC	-	4 µg/mL
CCCCc1nc2ccc(C)cc2c2nc3ccccc3n12	-	-	-	H37Rv	resazurin	MIC99	-	25 µg/mL
Clc1ccc(C(Cn2ccnc2)OCc2cccc3ccccc23)cc1	-	-	-	CIP103471	-	MIC	-	4 µg/mL
NC[C@H]1O[C@H](O[C@H]2[C@H](O)[C@@H](O[C@H]3O[C@H](CO)[C@@H](O)[C@H](N)[C@H]3O)[C@H](N)C[C@@H]2N)[C@H](O)[C@@H](O)[C@@H]1O	-	-	-	H37RV (DL8280-R)	-	MIC	-	25 µg/mL
CCOc1ccccc1CNCCNC12CC3CC(CC(C3)C1)C2	-	-	-	-	-	MIC	-	25 µM
O=C(/C=C/c1c(F)cccc1Cl)c1ccc(F)cc1	-	-	-	H37Rv	MTT	MIC	14 d	64 µg/mL
Cc1ccc(-c2cnc(Nc3cnc(OCCCN4CCN(C)CC4)nc3)c(C(N)=O)n2)cc1F	-	-	-	H37Rv (ATCC 27294)	resazurin	MIC	-	0.5 µg/mL
CC1COc2c(N3CCN(C)CC3)c(F)cc3c(=O)c(C(=O)O)cn1c23	-	-	-	90-0233 (isoniazid streptomycin-resistant)	-	MIC	-	0.5 µg/mL
CCOC(=O)c1ccc(NC(=O)C(CC(=O)Nc2cccc(Cl)c2)C(C)=O)cc1	-	30 µg/mL	-	H37Rv	-	inhibition	-	0%
CCOC(=O)c1c(-c2ccccc2)nn(CC(N)=O)c1CO	-	6.25 µg/mL	-	H37Rv	-	inhibition	-	-7%
CN(C)CCCOc1cccc(Nc2nccnc2C(N)=O)c1	-	-	-	H37Rv (ATCC 27294)	resazurin	MIC	-	>32 µg/mL
Cc1nc2ccccc2c2nc3cc(Cl)c(Cl)cc3n12	-	-	-	H37Rv	resazurin	MIC99	-	6.25 µg/mL
O=C(CSc1nnc(-c2ccncc2)n1-c1ccc(Cl)cc1)c1ccccc1	-	-	-	H37Rv	-	MIC	-	>6.25 µg/mL
CCOc1c(N=Nc2ccc(Cl)cc2Cl)c(C)nn1C(=S)S	-	-	-	INH-r	-	MIC	-	>12.5 µg/mL
COC(=O)[C@]1([C@@H]2CCC(=O)O2)CC(=O)c2c(cc3c(c2O)C2C=CC4(C3)C(=O)c3cc(C)cc(O)c3C(=O)[C@@]4(O)C2=O)O1	-	-	-	H37Ra	-	MIC	-	217 µM
CC(C)N=c1cc2n(-c3ccc(Cl)cc3)c3ccccc3nc-2cc1Nc1ccc(Cl)cc1	-	-	-	90-0145 (DRUG-SUS)	-	MIC	-	0.2 µg/mL
CC12CCC(C(=O)OC1=O)C2(C)C	-	-	-	H37Rv	resazurin	MIC bound	-	>6.25 µg/mL
O=C(/C=C/c1ccc(F)cc1)c1ccc(F)cc1	-	-	-	H37Rv	resazurin	MIC	14 d	32 µg/mL
CCN=C(Nc1cccc(C2=NCCN2)c1)c1ccc(C(=NCC)Nc2cccc(C3=NCCN3)c2)cc1	-	12.5 µg/mL	-	H37Rv	BACTEC	inhibition	-	41%
CCC(CO)C(=O)c1ccc(OCc2ccccc2)cc1O	-	-	-	H37Rv	fluorescence	MIC	-	25 µg/mL
CCCc1nc2ccccc2c2nc3cc4ccccc4cc3n12	-	-	-	H37Rv	resazurin	MIC99	-	6.25 µg/mL
C=CN(O)C[C@@H](CCCC)C(=O)N[C@H](C(=O)N(C)C)C(C)(C)C	-	-	-	H37Rv	-	MIC	-	0.2 µg/mL
Cc1ccc2nc(C)n3c4ccccc4nc3c2c1	-	-	-	H37Rv	resazurin	MIC99	-	0.78 µg/mL
c1ccc(C(CCNCCNCC(c2ccccc2)c2ccccc2)c2ccccc2)cc1	-	-	-	-	-	MIC	-	37.5 µM
CN1CCN(c2cc3c(cc2F)c(=O)c(C(=O)O)cn3-c2ccc(F)cc2)CC1	-	-	-	-	-	MIC50	-	2.7 µg/mL
NNC(=O)c1ccncc1	-	-	-	-	-	MIC90	-	>16 µg/mL
Cc1ccc(-c2cnc(Nc3cnc(OCCCN4CCN(C)CC4)nc3)c(C(N)=O)n2)c(F)c1	-	-	-	H37Rv (ATCC 27294)	resazurin	MIC	-	0.5 µg/mL
COc1ccc(C(=O)/C=C/c2ccc(F)cc2Cl)cc1	-	-	-	H37Rv	resazurin	MIC	14 d	64 µg/mL
CCCCCc1ccc(-c2cn(CC(=O)N3c4ccccc4Sc4ccc(C(F)(F)F)cc43)nn2)cc1	-	-	-	H37Rv	agar	MIC100	-	25 µg/mL
Cc1cc(Nc2ccc(Cl)c(Cl)c2)nc(N)n1	-	-	-	H37Rv	-	EC50	-	15 µM
C[C@@H]1CC[C@H]2O[C@]23C(=O)O[C@H]2OC(C)(C)[C@H]([C@@H]2O)[C@@]13C	-	12.5 µg/mL	-	H37Rv	BACTEC	inhibition	-	19%
CCNC(=O)c1nc(-c2ccc(C)c(F)c2)cnc1Nc1cnc(OCCCN2CCN(C)CC2)nc1	-	-	-	H37Rv (ATCC 27294)	resazurin	MIC	-	16 µg/mL
O=C1OS(=O)(=O)c2ccccc21	-	12.5 µg/mL	-	H37Rv	BACTEC	inhibition	-	0%
CCCCCCCCCCCNCCNCCc1ccc(OC)cc1	-	-	-	-	-	MIC	-	25 µM
Cc1ccc(N2C(c3ccccc3)=CC(=C3C=CC(=O)C=C3)C=C2c2ccccc2)cc1	-	-	VERO	H37Rv	-	MIC	-	12.5 µg/mL
CC1(C)[C@@H]2CC[C@H](CNCCNC[C@@H]3CC[C@H]4C[C@@H]3C4(C)C)[C@H]1C2	-	-	-	-	-	MIC	-	6.25 µM
CC(C)(C)c1ccc(COC(Cn2ccnc2)c2ccc(Cl)cc2Cl)cc1	-	-	-	CIP103471	-	MIC	-	1 µg/mL
Cc1ccc(-c2cc3cnccc3[nH]c2=O)cc1	-	-	-	H37Rv	-	EC50	-	17 µM
CCOC(=O)C1C2(C)NC(=O)C1(Cc1ccccc1)c1cc(C)c(C)cc1O2	-	-	-	H37Rv	BACTEC	MIC bound	-	>12.5 µg/mL
Cc1ccc(-c2cnc(NCCCN(C)C)c(C(N)=O)n2)cc1F	-	-	-	H37Rv (ATCC 27294)	resazurin	MIC	-	>32 µg/mL
CC(=O)C(CC(=O)Nc1ccc(C)cc1)C(=O)Nc1cccc2ccccc12	-	5 µg/mL	-	H37Rv	-	inhibition	-	0%
COc1cccc(/C=C/C(=O)c2ccc(F)cc2)c1F	-	-	-	H37Rv	resazurin	MIC	14 d	32 µg/mL
C[C@@H]1CN(c2c(F)c(N)c3c(=O)c(C(=O)O)cn(C4CC4)c3c2F)C[C@H](C)N1	-	-	-	-	-	MIC90	-	0.5 µg/mL
COc1c(N2CCNC(C)C2)c(F)cc2c(=O)c(C(=O)O)cn(C3CC3)c12	-	-	-	Strain 23	-	MIC	-	0.125 µg/mL
CC1=CC(=O)c2c(O)cccc2C1=O	-	-	-	H37Rv	-	EC50	-	>12.5 µg/mL
CC(/C=C/c1ccccc1)=N\NC(=O)c1ccncc1	-	-	-	H37Rv	resazurin	MIC bound	-	<6.25 µg/mL
Clc1ccc(C(Cn2ccnc2)OC/C=C/c2ccccc2)c(Cl)c1	-	-	-	CIP103471	-	MIC	-	8 µg/mL
CC(=O)Nc1nc(NC(C)=O)c2nc(CCN(C)c3ccc(C(=O)O)cc3)cnc2n1	-	-	-	H37Rv	BACTEC	MIC bound	-	>12.8 µg/mL
O=C(COc1cccc2cnccc12)NCc1ccccc1Br	-	-	-	H37Rv	-	EC50	-	0.49 µM
C=C1[C@@H](C)[C@H]2[C@H](Cc3ccccc3)NC(=O)[C@]23[C@H](OC(C)=O)/C=C/[C@](C)(O)C[C@@H](C)C/C=C/[C@H]3[C@@H]1O	-	12.5 µg/mL	-	H37Rv	BACTEC	inhibition	-	37%
CO[C@H]1/C=C/O[C@@]2(C)Oc3c(C)c(O)c4c(O)c(c(/C=N/N5CCN(C)CC5)c(O)c4c3C2=O)NC(=O)/C(C)=C\C=C\[C@H](C)[C@H](O)[C@@H](C)[C@@H](O)[C@@H](C)[C@H](OC(C)=O)[C@@H]1C	-	-	-	My 88	-	MIC	21 d	2 µM